Results as given in patent publication US8364409B2 (priority 2006, dated 2013).

What was measured:
[1] = system: M. bovis resistant mutant INH^R-4
[2] = system: M. bovis resistant mutant INH^R-4; test: impedance response drug susceptibility test, resistant mutant

NNC(=O)c1ccncc1 [INH, isoniazid]
MIC relative to MIC of the sensitive strain ([1]; mutant INH^R-4): 8 ×MIC of the sensitive strain
MIC ([1]; spontaneous INH-resistant mutant INH^R-4, micro-broth dilution): approximately 50 μg/ml
"normalized" value of the slope of the impedance response ([2]; 12.5 μg/ml INH (2×MIC), slope at four hours divided by slope of untreated cells, FIG. 11): one
effect on the viability of the resistant mutant ([2]; exposure to 12.5 μg/ml of INH): no affect on the viability
